Measured values from several laboratories, pooled; numbers as filed in NIAID ChemDB.

All rows: growth or infection tests; species: HIV-1; method: p24 / ELISA; measure: EC50

Lines come from different laboratories, so protocols vary. ECn is the concentration giving n% inhibition of infection, replication or growth. An empty or dashed field is not shown.

SMILES,changes,cell line,strain or isolate,result
CC(C)n1nc(-c2ccc3oc(N)nc3c2)c2c(N)ncnc21,-,PBMC,92BR020,0.00103 µM
Cc1cn([C@H]2C[C@H](N=[N+]=[N-])[C@@H](CO)O2)c(=O)[nH]c1=O,-,TZM-bl,SC422661.8,0.09834 µM
CC(C)CN(C[C@@H](O)[C@H](Cc1ccccc1)NC(=O)O[C@H]1CCOC1)S(=O)(=O)c1ccc(N)cc1,D437N L441P,MT-2,IIIB,0.0473 µM
CN(C)c1ccc(-c2cncc3sc(C(N)=O)c(N)c23)cc1,-,U1,-,0.038 µM
Cc1cc(C)cc([C@]23SCCN2C(=O)c2ccccc23)c1,-,Macrophage + Monocytes/macrophages,D79,0.016 µM
COc1cc(OC)nc(N2C(=O)CSC2c2c(Cl)cccc2[N+](=O)[O-])n1,-,PBMC,N119,1.6 µg/mL
Cc1cn([C@H]2C[C@H](N=[N+]=[N-])[C@@H](CO)O2)c(=O)[nH]c1=O,-,MOLT4 + MOLT-4,IIIB,<0.001 µg/mL
Nc1nc(=O)n([C@@H]2CS[C@H](CO)O2)cc1F,A62V V75I F77L F116Y Q151M,Primary T lymphocytes,-,0.4 µM
Cc1ccnc2c1NC(=O)c1cccnc1N2C1CC1,K103N,C8166,NL4-3,1.89 µM
CN(C)c1ccnc2sc(C(N)=O)c(N)c12,-,U1,-,0.659 µM
Cc1cc(=O)c2ccc(N=C=S)cc2o1,-,CEM-GFP,89.6,0.188 µM
NC(=O)c1sc2cncc(N3CCC4(CC3)OCCO4)c2c1N,-,U1,-,0.173 µM
Cc1ccnc2c1NC(=O)c1cccnc1N2C1CC1,-,PBMC,IIIB,0.162 µM
CCOP(=O)(COc1ccc(C[C@H](NC(=O)O[C@H]2CO[C@H]3OCC[C@H]32)[C@H](O)CN(CC(C)C)S(=O)(=O)c2ccc(OC)cc2)cc1)OCC,-,MT-2,IIIB,0.0058 µM
Nc1ccn([C@@H]2CS[C@H](CO)O2)c(=O)n1,4xAZT,Primary T lymphocytes,-,0.7 µM
C1CNCCNCCCN(CCCN2CCCNCCNCCCNCC2)CCNC1,-,MT-4,A012A,<373 µM
C=C(C)[C@]12C[C@@H](COC(=O)c3ccccc3)[C@@]34O[C@]5(O[C@@H]1[C@@H]3[C@@H]1O[C@]1(CO)[C@@H](O)[C@@]1(O)[C@H]4[C@H]([C@H](C)[C@@H]1OC(=O)c1ccccc1)[C@H](C)CCCCCC[C@H]5O)O2,-,PBMC,NL4-3,>1 µM
CC(=O)O[C@@]12C[C@@H](C)[C@@]3(O)[C@@H](C=C(CO)C[C@]4(O)C(=O)C(C)=C[C@@H]34)[C@@H]1C2(C)C,Vif-deficient,C8166,NL4-3,>10 µM
N#Cc1ccccc1-c1cncc2sc(C(N)=O)cc12,-,U1,-,0.946 µM
C1CNCCNCCCN[C@H]([C@@H]2CNCCCNCCNCCCN2)CNC1,-,PBL,IIIB,1.45 µM
Cc1cn([C@H]2C[C@H](N=[N+]=[N-])[C@@H](CO)O2)c(=O)[nH]c1=O,-,Jurkat cells,NL4-3,0.003 µM
Cc1cn([C@H]2C[C@H](N=[N+]=[N-])[C@@H](CO)O2)c(=O)[nH]c1=O,-,Macrophage,-,0.3 µM
NC(=O)c1cc2c(-c3ccc4c(c3)OCO4)cncc2s1,-,U1,-,0.065 µM
COc1cc(OC)nc(N2C(=O)CSC2c2c(F)cccc2Cl)n1,-,PBMC,VB51,0.002 µg/mL
CCN(c1nc(F)ccc1NC(C)(C)C)C1CCN(C(=O)c2cc3cc(NC(=O)N4CCN(C)CC4)ccc3[nH]2)CC1,D437N L441P,MT-2,IIIB,0.0261 µM
NC(=O)c1cc2c(-c3ccc4c(c3)CCO4)cncc2s1,-,PBMC,92UG005,0.0708 µM

The first 2 rows once more:

SMILES | changes | cell line | strain or isolate | result
CC(C)n1nc(-c2ccc3oc(N)nc3c2)c2c(N)ncnc21 | - | PBMC | 92BR020 | 0.00103 µM
Cc1cn([C@H]2C[C@H](N=[N+]=[N-])[C@@H](CO)O2)c(=O)[nH]c1=O | - | TZM-bl | SC422661.8 | 0.09834 µM